Measured values from several laboratories, pooled; numbers as filed in NIAID ChemDB.

Common to all: whole-cell or culture tests; organism: Mycobacterium tuberculosis

Neighbouring rows are from separate reports.

structure	cells	measure	tested at	changes	method	strain or isolate	result
NNC(=O)c1ccncc1	-	MIC50	-	-	-	18 strains (levofloxacin-resistant)	25 µg/mL
CCCCOc1ccc(NC(=S)Nc2ccc(OCCN(CC)CC)cc2)cc1	-	MIC	-	-	-	BCG #256	31.3 µg/mL
COc1ccc2nc(Cl)cc(C)c2c1	-	MIC	-	-	-	H37Rv	>100 µg/mL
Cc1ccc(NN=O)nc1	-	MIC	-	-	BACTEC	H37Rv	≥12.5 µg/mL
Cl.Nc1csc(N)n1	-	MIC	-	-	-	H37Rv	>100 µg/mL
CNC(=O)NC1ON=C(c2ccccc2)C1C(=O)NC	-	MIC bound	-	-	BACTEC	H37Rv	>12.5 µg/mL
Nc1ccc2cccc(O)c2c1	-	MIC	-	-	-	H37Rv	50 µg/mL
CC1(C)CN(C(=S)N2CC(C)(C)SC2=O)C(=O)S1	-	MIC bound	-	-	BACTEC	H37Rv	>12.5 µg/mL
O=c1oc2ccc(-c3ccccc3)cc2c(O)c1N=Nc1cccc(F)c1Cl	-	inhibition	6.25 µg/mL	-	resazurin	H37Rv	19%
CCCCCCCCC=CCCCCCCCCNCc1ccc(OC)c(OC)c1	-	MIC	-	-	-	Clinical isolates MDR	6.25 µg/mL
CCN(CC)CCCCNc1ccc(NCCCCN(CC)CC)c2c1C(=O)c1ccccc1C2=O	-	MIC bound	-	-	BACTEC	H37Rv	>12.5 µg/mL
O=C1CC(O)c2cccc3c2N1CC=C3	-	MIC	-	-	-	H37Rv	>100 µg/mL
CCOc1ccc(NC(=S)Nc2ccc(OCC(C)C)cc2)cc1	-	MIC	-	-	-	H37RV #301	3.9 µg/mL
CCCCOCC(O)CO	-	MIC	-	-	-	H37Rv	>100 µg/mL
Cc1cccc(N=Nc2c(O)c3ccc(Cl)cc3[nH]c2=O)c1	-	MIC	-	-	resazurin	H37Rv	<6.25 µg/mL
CO[C@H]1/C=C/O[C@@]2(C)Oc3c(C)c(O)c4c(=O)c(c5oc6cc(N7CCN(CC(C)C)CC7)cc(=O)c6nc5c4c3=C2O)NC(=O)/C(C)=C\C=C\[C@H](C)[C@H](O)[C@@H](C)[C@@H](O)[C@@H](C)[C@H](OC(C)=O)[C@@H]1C	-	MIC	-	-	-	11 (ethambutol-resistant)	0.0019 µg/mL
C=C(C)[C@@H]1CC[C@]2(C(=O)O)CC[C@]3(C)[C@H](CCC4[C@@]5(C)CC[C@H](C(=O)/C=C/c6ccc(O)c(O)c6)C(C)(C)[C@@H]5CC[C@]43C)[C@@H]12	-	inhibition	12.5 µg/mL	-	BACTEC	H37Rv	23%
CCOC(=O)Nc1cc2c(c(N)n1)N=C(c1cccc(OC)c1)CS2	-	EC50	-	-	-	H37Rv	<12.5 µg/mL
Cc1ccc(CNC(=O)c2c(-c3ccc(Br)s3)noc2C)o1	-	MIC	-	-	resazurin	18b	8 µg/mL
O=C(O)CCS(=O)(=O)CCC(=O)O	-	MIC	-	-	-	H37Rv	>100 µg/mL
NC(=S)Cc1ccncc1	-	inhibition	6.25 µg/mL	-	resazurin	-	76%
C=CCn1c(C)c(C(=O)O)s/c1=N\N=C1/C(=O)Nc2ccccc21	-	MIC	-	-	-	H37Rv	>12.5 µg/mL
Cc1ccc2c(c1)c(N=NC(=S)NC1CCCCC1)c(O)n2C	-	EC50	-	-	broth dilution / resazurin	H37Rv	>100 µg/mL
CC1COc2c(N3CCN(C)CC3)c(F)cc3c(=O)c(C(=O)O)cn1c23	-	MIC	-	-	-	106-2	1 µg/mL
CCNc1ccc(C(=C2C=CC(=[NH+]CC)C(C)=C2)c2ccc(NCC)cc2)cc1.[Cl-]	-	MIC	-	-	-	H37Rv	>100 µg/mL
CCNc1oc(-c2ccc(S(=O)(=O)N3CCC(C)CC3)cc2)nc1C#N	-	MIC	-	-	resazurin	18b	16 µg/mL
Cc1cc(-c2cc3c(cc2F)c(=O)c(C(=O)O)cn3C2CC2)cc(C)n1	-	MIC	-	-	-	1024-8	0.5 µg/mL
CCOC(=O)Nc1cc(N[C@H](C)C(=O)c2ccccc2)c([N+](=O)[O-])c(N)n1	-	EC50	-	-	-	H37Rv	>12.5 µg/mL
O=C1OCCN(CCO)C1=O	-	MIC	-	-	-	H37Rv	>100 µg/mL
Cc1ccc2c(c1)c(N=NC(=S)Nc1ccc(Br)cc1)c(O)n2C	-	EC90	-	-	broth dilution / resazurin	H37Rv	>100 µg/mL
Cc1c(N2CC3CCCNC3C2)c(F)cc2c(=O)c(C(=O)O)cn([C@@H]3C[C@@H]3F)c12	-	MIC	-	-	-	51 (RFP-resistant)	0.05 µg/mL
CCCCCCCCCCCCNCc1ccccn1	-	MIC	-	-	-	Sensitive strains	1.56 µg/mL
Cc1c(N2C[C@@H](N)C3(CC3)C2)c(F)c(N)c2c(=O)c(C(=O)O)cn(C3CC3)c12	-	MIC90	-	-	-	27 strains (levofloxacin-susceptible)	1.56 µg/mL
Oc1c(N=NC(=S)NCc2ccccc2)c2cc(OC(F)(F)F)ccc2n1CN1CCOCC1	-	EC90	-	-	broth dilution / resazurin	H37Rv	>100 µg/mL
CCC1CN(c2c(F)cc3c(=O)c(C(=O)O)cn([C@@H]4C[C@@H]4F)c3c2OC)CCN1	-	MIC	-	-	-	71 (RFP-resistant)	1 µg/mL
CCCCCCCCCCCCNC(CC(=O)OCC)c1cccc([N+](=O)[O-])c1	-	MIC	-	-	-	Sensitive strains	6.25 µg/mL
Cc1ccc(NC2=CC(=O)C(=O)c3ccccc32)c(C)c1	VERO	MIC	-	-	resazurin	H37Rv	≤0.1 µg/mL
COc1c(N2CCNC(C)C2)c(F)cc2c(=O)c(C(=O)O)cn(C3CC3)c12	-	MIC90	-	-	-	23 strains (rifampin- isoniazid-susceptible)	0.2 µg/mL
CCOC(=O)CC(NCc1ccccc1)c1cccc(Cl)c1	-	MIC	-	-	-	H37Ra	>25 µg/mL
CC(=O)NCC(=O)O	-	MIC	-	-	-	H37Rv	>100 µg/mL
O=C(CSc1nc2ccccc2[nH]1)N=Nc1c(O)[nH]c2ccccc12	-	MIC	-	-	-	H37Rv	>12.5 µg/mL
CCOC(=O)C[N+]1(C)C2CCC1CC(OC(=O)C(CO)c1ccccc1)C2.[Cl-]	-	inhibition	12.5 µg/mL	-	BACTEC	H37Rv	7%
Cc1ccc2c(c1)c(N=NC(=S)Nc1cccc(Br)c1)c(O)n2C	-	EC90	-	-	broth dilution / resazurin	H37Rv	>100 µg/mL
O=C(O)COc1cc(Cl)c(Cl)cc1Cl	-	MIC	-	-	-	H37Rv	>100 µg/mL
CCCN1CNC(=S)N(c2ccc(C(=O)OCC)cc2)C1	-	MIC	-	-	resazurin	18b	16 µg/mL
CCCCCCCCC=CCCCCCCCCNCc1ccccc1O	-	MIC	-	-	-	Sensitive strains	1.56 µg/mL
Oc1c(N=NC(=S)Nc2ccc(F)cc2)c2cc(OC(F)(F)F)ccc2n1CN1CCOCC1	-	EC50	-	-	broth dilution / resazurin	H37Rv	2.329 µg/mL
CCOC(=O)Nc1cc(N)c2nc(C)cnc2n1	-	EC50	-	-	-	H37Rv	>12.5 µg/mL
CC(C)n1[nH]c(=O)c2c1NC(=O)CSC2c1ccccc1	-	MIC	-	-	resazurin	18b	8 µg/mL
Cc1cc(O)c2c3c(c(=O)oc2c1)CCC(C)C3	-	MIC	-	-	-	H37Rv	>100 µg/mL
Cc1ccc(CNS(=O)(=O)c2ccc(-c3n[nH]c(C)c3C)o2)o1	-	MIC	-	-	resazurin	Clinical isolate	8 µg/mL
CCCCCCCCCCCCNCc1ccc(Cl)cc1	-	MIC	-	-	-	Sensitive strains	3.12 µg/mL
CC1(C)N=C(c2ccccc2)C(=O)N1CC(=O)Nc1ccc2c(c1)OCO2	-	MIC	-	-	resazurin	18b	>16 µg/mL
NNC(=O)c1ccncc1	-	MIC	-	-	-	Isolate V	0.015 µg/mL
NC(=O)c1n[nH]c([C@H]2C[C@H](O)[C@@H](CO)O2)n1	-	MIC bound	-	-	BACTEC	H37Rv	>12.5 µg/mL
O=C(CCl)NC(NC(=O)CCl)c1ccccc1	-	MIC	-	-	-	H37Rv	50 µg/mL
Nc1cc(Cl)cc2c1nc(NCCO)c1ccccc12	-	inhibition	12.5 µg/mL	-	BACTEC	H37Rv	78%
Cn1c(O)c(N=NC(=S)Nc2ccc([N+](=O)[O-])cc2)c2cc(OC(F)(F)F)ccc21	-	EC50	-	-	broth dilution / resazurin	H37Rv	>100 µg/mL
Nc1ccccc1[N+](=O)[O-]	-	MIC	-	-	-	H37Rv	>100 µg/mL
CCOC(=O)Nc1cc2c(c(N)n1)N=C(c1ccccc1)C(C)O2	-	EC50	-	-	-	H37Rv	<12.5 µg/mL
CCCCN=C(N=Nc1c(O)[nH]c2ccc(Br)cc12)SCC(=O)c1ccc(Br)cc1	-	MIC	-	-	-	H37Rv	12.5 µg/mL
O=[N+]([O-])c1ccc2sc3ccccc3c2c1	-	MIC	-	-	-	H37Rv	>100 µg/mL
O=C1C=CC2(CCC23C=CC(=O)O3)O1	-	MIC	-	-	BACTEC	H37Rv	≥12.8 µg/mL
CCOC(=O)Nc1ccccc1	-	MIC	-	-	-	H37Rv	>100 µg/mL
CCNC1C2(CCCCC2)NC(=O)C12CCCCC2	-	inhibition	12.5 µg/mL	-	BACTEC	H37Rv	2%
CCCC(NCc1ccccc1)C(N)=O.Cl	-	MIC	-	-	-	H37Rv	>100 µg/mL
O=c1oc2ccc(-c3ccccc3)cc2c(O)c1N=Nc1ccc(F)cc1	-	MIC	-	-	resazurin	H37Rv	<6.25 µg/mL
Nc1ccc2c(c1)C(=O)c1ccccc1C2=O	-	MIC	-	-	-	H37Rv	>100 µg/mL
CCOP(=O)(OCC)Oc1ccc(S(C)=O)cc1	-	inhibition	6.25 µg/mL	-	resazurin	H37Rv	-34%
NNC(=O)c1ccncc1	-	MIC	-	Extensively drug-resistant	resazurin	FJ05195	>256 µg/mL
CCCCOc1ccc(NC(=S)Nc2ccc(N(C)C)cc2)cc1	-	MIC	-	-	-	H37RV #301	3.9 µg/mL
O=C(Nc1ccccc1F)Sc1c(Cl)c(Cl)nc(Cl)c1Cl	-	inhibition	6.25 µg/mL	-	resazurin	H37Rv	10%
O=c1[nH]c2c(Cl)c(Cl)ccc2c(O)c1N=Nc1ccccc1	-	MIC	-	-	resazurin	H37Rv	<6.25 µg/mL
O=C(CCCC(=O)N/N=C/c1ccc(Cl)cc1Cl)N/N=C/c1ccc(Cl)cc1Cl	-	MIC bound	-	-	BACTEC	H37Rv	>12.5 µg/mL
NNC(=O)c1ccncc1	-	MIC	-	-	resazurin	MDR-699	64 µg/mL
NC(=O)CSc1nc(N)cc(N)n1	-	MIC	-	-	-	H37Rv	>100 µg/mL
CCOC(=O)Nc1cc(NC(C)C(O)COc2ccccc2)c(N)c(N)n1	VERO	EC50	-	-	-	H37Rv	<12.5 µg/mL
C=CCNC(=S)N=Nc1c(O)[nH]c2ccccc12	-	EC50	-	-	-	H37Rv	>12 µg/mL
NCCCN1c2ccccc2Sc2ccccc21	-	MIC	-	-	resazurin	XDR-83	64 µg/mL
NC1CN(c2c(F)cc3c(=O)c(C(=O)O)cn(C4CC4)c3c2Cl)CC12CC2	-	MIC	-	-	-	68 (RFP-susceptible)	0.1 µg/mL
CO[C@H]1/C=C/O[C@@]2(C)Oc3c(C)c(O)c4c(=O)c(c5oc6cc(N7CCN(CC(C)C)CC7)cc(=O)c6nc5c4c3=C2O)NC(=O)/C(C)=C\C=C\[C@H](C)[C@H](O)[C@@H](C)[C@@H](O)[C@@H](C)[C@H](OC(C)=O)[C@@H]1C	-	MIC	-	-	-	Watanabe	4 µg/mL
CCCCCCCCNC(CC(=O)OCC)c1ccc([N+](=O)[O-])cc1	-	MIC	-	-	-	Sensitive strains	25 µg/mL
C1CSCCSCCSCCSCCSCCS1	-	inhibition	12.5 µg/mL	-	BACTEC	H37Rv	-1%
Cc1ccc2[nH]c(O)c(N=NC(=S)Nc3ccc(F)cc3)c2c1	-	EC90	-	-	broth dilution / resazurin	H37Rv	1.587 µg/mL
CC12CC(=O)C3C(CCC4CC(OS(=O)(=O)[O-])CCC43C)C1CC1OC(=O)C=C12.[Na+]	-	MIC	-	-	BACTEC	H37Rv	≥12.8 µg/mL
CCCCCCCCCCCCCCCCNCc1ccc(Cl)cc1	-	MIC	-	-	-	Sensitive strains	25 µg/mL
COc1cccc(Nc2sc(C(=O)c3cc4cc(Cl)ccc4o3)c(N)c2C#N)c1	-	MIC bound	-	-	BACTEC	H37Rv	>12.5 µg/mL
C[C@@H]1CN(c2c(F)c(N)c3c(=O)c(C(=O)O)cn(C4CC4)c3c2F)C[C@H](C)N1	-	MIC	-	-	-	900240	0.2 µg/mL
Cc1cn(CCCOc2c3occc3cc3ccc(=O)oc23)c(=O)[nH]c1=O	-	inhibition	6.25 µg/mL	-	resazurin	H37Rv	22%
CSC(=O)c1ccc(O)cc1O	-	MIC	-	-	-	H37Rv	25 µg/mL
O=C(CCCC(=O)N/N=C/c1cccc2ccccc12)N/N=C/c1cccc2ccccc12	-	inhibition	12.5 µg/mL	-	BACTEC	H37Rv	-29%
CC1=NN(c2ccc(N)cc2)C(=O)C1	-	MIC	-	-	-	H37Rv	>100 µg/mL

The first 10 rows once more:

structure	cells	measure	tested at	changes	method	strain or isolate	result
NNC(=O)c1ccncc1	-	MIC50	-	-	-	18 strains (levofloxacin-resistant)	25 µg/mL
CCCCOc1ccc(NC(=S)Nc2ccc(OCCN(CC)CC)cc2)cc1	-	MIC	-	-	-	BCG #256	31.3 µg/mL
COc1ccc2nc(Cl)cc(C)c2c1	-	MIC	-	-	-	H37Rv	>100 µg/mL
Cc1ccc(NN=O)nc1	-	MIC	-	-	BACTEC	H37Rv	≥12.5 µg/mL
Cl.Nc1csc(N)n1	-	MIC	-	-	-	H37Rv	>100 µg/mL
CNC(=O)NC1ON=C(c2ccccc2)C1C(=O)NC	-	MIC bound	-	-	BACTEC	H37Rv	>12.5 µg/mL
Nc1ccc2cccc(O)c2c1	-	MIC	-	-	-	H37Rv	50 µg/mL
CC1(C)CN(C(=S)N2CC(C)(C)SC2=O)C(=O)S1	-	MIC bound	-	-	BACTEC	H37Rv	>12.5 µg/mL
O=c1oc2ccc(-c3ccccc3)cc2c(O)c1N=Nc1cccc(F)c1Cl	-	inhibition	6.25 µg/mL	-	resazurin	H37Rv	19%
CCCCCCCCC=CCCCCCCCCNCc1ccc(OC)c(OC)c1	-	MIC	-	-	-	Clinical isolates MDR	6.25 µg/mL

A number after MIC or MFC names an inhibition level or a share of isolates. ECn is the concentration giving n% inhibition of infection, replication or growth. Percent inhibition refers to the dose given; in toxicity tests it is the harm to the cells. MIC bound: limit read from a one-dose screen. An empty or dashed field is not shown.